Pooled drug test results. Numbers come from NIAID ChemDB, via PubChem.

Shared fields: whole-cell or culture tests; agent: Candida tropicalis; read by: broth dilution; read-out: MIC

Lines come from different laboratories, so protocols vary. An empty or dashed field is not shown.

SMILES	strain	result
C[C@H]1[C@H](O)[C@@H](C)/C=C/C=C/C=C/C=C/C=C/C=C/C=C/[C@H](O[C@@H]2O[C@H](C)[C@@H](O)[C@H](N)[C@@H]2O)C[C@@H]2O[C@](O)(C[C@@H](O)C[C@@H](O)CC[C@H](O)[C@@H](O)C[C@@H](O)CC(=O)O[C@H]1C)C[C@H](O)[C@H]2C(=O)O	Clinical isolates	0.5 µg/mL
O=c1c(O)c(-c2ccccc2)oc2cc(O)cc(O)c12	-	160 µg/mL
COc1ccccc1O	-	10 µg/mL
CC[C@@H]([C@H](C)O)n1ncn(-c2ccc(N3CCN(c4ccc(OC[C@@H]5CO[C@@](Cn6cncn6)(c6ccc(F)cc6F)C5)cc4)CC3)cc2)c1=O	Clinical isolates	0.06 µg/mL
C=CCc1ccc(O)c(-c2cc(CC=C)ccc2O)c1	-	160 µg/mL
C=CCc1ccc(OC)c(OC)c1	-	1280 µg/mL
CCC(C)n1ncn(-c2ccc(N3CCN(c4ccc(OC[C@H]5CO[C@](Cn6cncn6)(c6ccc(Cl)cc6Cl)O5)cc4)CC3)cc2)c1=O	Clinical isolates	0.06 µg/mL
CC1(C)C=C2C3CCC4[C@@]5(C)CCC(=O)C(C)(C)C5CC[C@@]4(C)[C@]3(C)CC[C@@]2(C(=O)O)CC1	ATCC 750	>200 µg/mL
C[C@H]1[C@H](O)[C@@H](C)/C=C/C=C/C=C/C=C/C=C/C=C/C=C/[C@H](O[C@@H]2O[C@H](C)[C@@H](O)[C@H](N)[C@@H]2O)C[C@@H]2O[C@](O)(C[C@@H](O)C[C@@H](O)CC[C@H](O)[C@@H](O)C[C@@H](O)CC(=O)O[C@H]1C)C[C@H](O)[C@H]2C(=O)O	CBS 94	0.01 µg/mL
COc1cc(C)ccc1O	-	2240 µg/mL
COC(=O)[C@]12CCC(C)(C)C=C1C1CCC3[C@@]4(C)CCC(=O)C(C)(C)C4CC[C@@]3(C)[C@]1(C)CC2	ATCC 750	100 µg/mL
Cc1ccc(O)cc1	-	880 µg/mL
CCC(C)CC(C)CCCCCCCCC(=O)N[C@H]1C[C@@H](O)[C@H](NCCN)NC(=O)[C@@H]2[C@@H](O)CCN2C(=O)[C@H]([C@H](O)CCN)NC(=O)[C@H]([C@H](O)[C@@H](O)c2ccc(O)cc2)NC(=O)[C@@H]2C[C@@H](O)CN2C(=O)[C@H]([C@@H](C)O)NC1=O	1507	0.25 µg/mL
Cc1ccc(C(C)C)cc1O	-	250 µg/mL
C[C@@H]1O[C@@H](Oc2c(-c3ccc(O)c(O)c3)oc3cc(O)cc(O)c3c2=O)[C@H](O)[C@H](O)[C@H]1O	ATCC 750	100 µg/mL

2 of the rows above, restated:

SMILES | strain | result
O=c1c(O)c(-c2ccccc2)oc2cc(O)cc(O)c12 | - | 160 µg/mL
COc1ccccc1O | - | 10 µg/mL